Measurements as given in ChEMBL document CHEMBL3351716, “Targeting the androgen receptor with steroid conjugates” (J Med Chem, 2014).

What was measured:
[1] = target: T1, Progesterone receptor (Homo sapiens) (UniProt P06401); assay: Binding affinity to progesterone receptor (unknown origin) by radiometric competitive assay
T1 sequence (whole entry): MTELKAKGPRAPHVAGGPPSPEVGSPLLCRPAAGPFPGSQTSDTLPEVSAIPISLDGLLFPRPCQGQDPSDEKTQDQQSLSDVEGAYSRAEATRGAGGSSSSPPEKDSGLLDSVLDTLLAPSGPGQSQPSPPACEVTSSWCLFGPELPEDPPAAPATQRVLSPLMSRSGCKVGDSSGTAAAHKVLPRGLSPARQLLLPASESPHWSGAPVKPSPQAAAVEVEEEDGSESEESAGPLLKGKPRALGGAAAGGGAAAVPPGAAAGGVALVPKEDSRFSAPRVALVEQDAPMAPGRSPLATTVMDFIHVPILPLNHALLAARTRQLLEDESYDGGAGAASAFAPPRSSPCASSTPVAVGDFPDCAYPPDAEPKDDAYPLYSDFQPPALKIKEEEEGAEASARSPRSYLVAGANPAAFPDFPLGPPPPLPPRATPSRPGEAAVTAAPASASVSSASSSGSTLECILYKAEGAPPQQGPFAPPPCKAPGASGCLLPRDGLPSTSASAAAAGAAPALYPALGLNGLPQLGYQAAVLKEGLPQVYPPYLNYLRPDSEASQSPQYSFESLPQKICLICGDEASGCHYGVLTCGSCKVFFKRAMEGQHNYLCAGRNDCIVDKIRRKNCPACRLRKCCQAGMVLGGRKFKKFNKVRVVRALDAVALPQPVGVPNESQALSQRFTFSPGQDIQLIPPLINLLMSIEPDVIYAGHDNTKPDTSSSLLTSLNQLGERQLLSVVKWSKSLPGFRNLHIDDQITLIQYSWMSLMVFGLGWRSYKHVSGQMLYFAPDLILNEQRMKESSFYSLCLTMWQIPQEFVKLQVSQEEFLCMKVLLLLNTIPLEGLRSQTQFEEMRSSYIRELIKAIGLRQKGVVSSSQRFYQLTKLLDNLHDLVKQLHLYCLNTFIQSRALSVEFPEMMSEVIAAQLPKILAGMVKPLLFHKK

[2] = target: T2, Androgen receptor (Homo sapiens) (UniProt P10275); assay: Binding affinity to androgen receptor (unknown origin) by radiometric competitive assay
T2 sequence (whole entry): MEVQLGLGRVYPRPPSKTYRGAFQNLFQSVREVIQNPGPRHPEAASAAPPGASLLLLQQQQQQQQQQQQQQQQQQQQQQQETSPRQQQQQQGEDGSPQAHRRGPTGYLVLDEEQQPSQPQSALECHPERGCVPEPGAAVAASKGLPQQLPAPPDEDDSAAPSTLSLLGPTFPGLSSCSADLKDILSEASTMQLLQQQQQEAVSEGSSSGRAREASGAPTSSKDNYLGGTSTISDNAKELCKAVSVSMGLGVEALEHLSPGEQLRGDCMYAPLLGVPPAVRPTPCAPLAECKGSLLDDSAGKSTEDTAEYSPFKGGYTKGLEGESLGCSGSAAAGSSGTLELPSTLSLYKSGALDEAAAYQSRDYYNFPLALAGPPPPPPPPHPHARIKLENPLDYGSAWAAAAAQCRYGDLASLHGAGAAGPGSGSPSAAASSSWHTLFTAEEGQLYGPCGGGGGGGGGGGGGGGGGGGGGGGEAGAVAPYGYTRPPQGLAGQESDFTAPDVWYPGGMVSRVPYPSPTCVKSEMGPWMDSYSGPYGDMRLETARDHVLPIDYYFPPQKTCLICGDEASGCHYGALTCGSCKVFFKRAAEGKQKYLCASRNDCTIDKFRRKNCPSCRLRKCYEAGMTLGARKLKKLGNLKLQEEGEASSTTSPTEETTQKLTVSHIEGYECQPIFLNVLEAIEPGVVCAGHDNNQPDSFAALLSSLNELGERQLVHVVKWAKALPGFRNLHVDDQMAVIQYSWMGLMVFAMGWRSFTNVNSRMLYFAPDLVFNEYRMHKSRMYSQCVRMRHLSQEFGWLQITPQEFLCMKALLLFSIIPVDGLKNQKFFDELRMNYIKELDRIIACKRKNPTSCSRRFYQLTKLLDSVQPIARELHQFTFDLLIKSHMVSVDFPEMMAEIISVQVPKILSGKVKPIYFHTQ

## ClCCN(CCCl)c1ccccc1
[1]
  Activity: 4.2%
[2]
  Activity: 20%
